Reference: the supplement of paper PMC9931576
Human monoclonal antibodies against the spike receptor-binding domain (heavy:light variable regions). IC50 against pseudoviruses bearing the spike of naturally observed variants; lower = stronger; >10 µg/ml means not reached at the top dose. No active / inactive call. The stated detection limit is 0.0005 µg/ml; values near or below 0.001 µg/ml lie at the floor of the assay.

Assays:
Assay in all cases: pseudovirus neutralization IC50; higher = weaker neutralization
[1] = biological target: SARS-CoV-2 Omicron BA.1 spike pseudovirus
Experimental: (§1)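 Single-round VSV luciferase pseudovirus mixed with antibody dilutions for 1 h and put on Huh-7 cells for about a day; IC50 from the dose curve.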

[2] = biological target: SARS-CoV-2 Omicron BA.2 spike pseudovirus
Experimental: as §1

[3] = biological target: SARS-CoV-2 Omicron BA.2.75 spike pseudovirus
Experimental: as §1

[4] = biological target: SARS-CoV-2 Omicron BA.5 spike pseudovirus
Experimental: as §1

[5] = biological target: SARS-CoV-2 Omicron BQ.1.1 spike pseudovirus
Experimental: as §1

[6] = biological target: SARS-CoV-2 Omicron XBB spike pseudovirus
Experimental: as §1

[7] = biological target: SARS-CoV-2 early D614G spike pseudovirus
Experimental: as §1

| Binder | pseudovirus neutralization IC50 [1] [µg/mL] | pseudovirus neutralization IC50 [2] [µg/mL] | pseudovirus neutralization IC50 [3] [µg/mL] | pseudovirus neutralization IC50 [4] [µg/mL] | pseudovirus neutralization IC50 [5] [µg/mL] | pseudovirus neutralization IC50 [6] [µg/mL] | pseudovirus neutralization IC50 [7] [µg/mL] |
| --- | --- | --- | --- | --- | --- | --- | --- |
| BD55-6345 (protein) chain 1: EVQLVESGGGLVKPGGSLRLSCAASGFTFSSFDMNWVRQAPGKGLEWVSSITTSSSYIYYADSMKGRFTISRDDAKNSLYLQMNSLRAEDTAVYYCARASSNYFGLNYFDYWGRGTLVTVSS chain 2: EIMMTQSPATLSVSPGDRATLSCRASQSVSSNLAWYQQKPGQAPRLLIYGASTRATGIPARFSGSGSGTEFTLTVSSLQSEDFAVYHCQQYHIWPPMYTFGQGTKLEIK | > 10 | > 10 | > 10 | > 10 | > 10 | > 10 | > 10 |
| BD55-1226 (protein) chain 1: QVQLVESGGGVVQPGRSLRLSCAASGFSLKTYGMHWVRQAPGKGLEWVAVIWDDGKNKLYAESVKGRITISSDNSQNTVYLQMTSLRAEDTAVYYCARDMGRLVSWFDYWGQGTLVTVSS chain 2: DIQMTQSPSSLSASVGDRVTITCRASQSISRYLNWYQHKPGTAPKLLIYDASSLQSGVPSRFSGSGSGTDFTLTISSLQPEDFATYFCQQSYNTPPWTFGQGTKVEVK | > 10 | > 10 | > 10 | > 10 | > 10 | > 10 | 4.4 |
| BD55-6313 (protein) chain 1: QVTLKESGPVLVKPTETLTLTCTVSGFSLSNTRVGVSWIRQTPGKALEWLAHIFSNDAESYSTSLRNRLTVSKDPSKSQAVLIMTDMDPVDTATYYCARQTYDHSSGWYEDYWGQGALVTVSS chain 2: DIQMTQSPSSLSASVGDRVTITCRASQSISTYLNWYQQKSGKAPTLLIHAASSLQSGVPSRFSASGSGTDFTLTISSLQPEDFATYYCHQSYSTPPTFGQGTKLEIK | > 10 | > 10 | > 10 | > 10 | > 10 | > 10 | > 10 |
| BD55-6333 (protein) chain 1: QVQLVQSGAEVKKPGASVKVSCKASGYTFTNYEINWVRQATGQGLEWMGWMNPDSGITAYAPKFQGRVTMTTNTPISTAYMELSSLTSEDTAVYYCAREKTGEGMLKYYYYDMDVWGQGTTVIVSS chain 2: DIQMTQSPSALSASVGDGVTITCRASQNINTNLNWYRQKPGKAPELLIYAASSLQSGVPSRFSGSGSGTDFTLTISSLQPEDFASYYCQQSYTTPTTFGQGTKVEIK | > 10 | > 10 | > 10 | > 10 | > 10 | > 10 | > 10 |
| BD55-6316 (protein) chain 1: QVQLVQSGAEVKKPGASVKVSCKASGYTFTSYYIHWVRQAPGQGLEWMGIINPDGGSTTYAQKFQGRFTMTRDTSTSTVYMELYSLRSEDTALYYCARDWGLVPASMYYFDYWGQGTLVTVSS chain 2: EIVLTQSPATLSLSPGERATLSCRASQSVSSYLAWYQQKPGQAPRLLIYDASNRATGIPARFSGSGSGTDFTLTISSLEPEDFAVYYCQQRGNWPRTFGQGTKVEI | > 10 | > 10 | > 10 | > 10 | > 10 | > 10 | > 10 |
| BD55-6325 (protein) chain 1: QVQLVQSGAEVKKPGASVKVSCKASGYTFTSYYIHWLRQAPGQGLEWMGIINPDGGSTTYAQKFQGRVTLTSDTSTSTVFMELSSLRSEDTAVYYCARDWGLVPASMYYFDFWGQGTLVTVSS chain 2: EIVLTQSPATLSLSPGERATLSCRASQSVSSYLAWYQQKPGQAPRLLIYDASNRATGIPARFSGSGSGTDFTLTISSLEPEDFAVYYCQQRGNWPRTFGQGTKVEI | 4.14 | 3.74 | 3.67 | 3.3 | > 10 | > 10 | 3.87 |
| BD55-6342 (protein) chain 1: DVQLLESGGGLVQPGGSLRLSCAASGFTFSDYAMSWVRQAPGRGLEWVSTISYSGVTTYFADSVEGRFTISRDNSKNTVSLQMNSLRAEDTALYYCARDSRGYYSMDVFDIWGQGTMVTVSS chain 2: DVVMTQSPLSLPVTLGQPASISCRSSQSLVYSDGNTYLNWFQQRPGQSPRRLIYQVSNRDSGVPDRFSGSGSATDFTLTISRVEAEDVGVYYCMQGTHWPRTFGQGTKVELK | > 10 | > 10 | > 10 | > 10 | > 10 | > 10 | > 10 |
| BD55-6330 (protein) chain 1: QLQLAQSGAEVKKPGASVKVSCKASGDTFTGYYIHWVRQAPGQGLEWMGWINPNSGGTSYAHKFQGRVTMTRDTSISTAYMELSGLRSDDTAVYYCAREIPMITDPQVAFDIWGQGTMVTVSS chain 2: DIQMTQSPSSLSASVGDRVTITCRASQSISTYLNWYQQKPGKAPKLLIYAASTLQSGVPSRFSGGGSGTDFSLTISSLQPEDFATYYCQQSYSFSYTFGQGTKLEIK | > 10 | > 10 | > 10 | > 10 | > 10 | > 10 | 4.45 |
| BD55-6315 (protein) chain 1: EVQLVESGGGLVHPGGSLRLSCAASGFNFVNFEMDWVRQAPGKGLEWISHIRSSDSTTFYADSVKGRFTISRDNARNSLYLQMSSLRAEDTAVYYCARSQLYYSDSNGYGNYYYYYGMDVWGQGTTVTVSS chain 2: DIQMTQSPSSLSASVGDRVTITCRASQSISTYLNWYQQKPGKAPKLLIYAASSLQSGVPSTFSGSGSGTDFTLTISSLQPEDFATYYCQQSYTTPQAWTFGQGTKVELK | > 10 | > 10 | > 10 | > 10 | > 10 | > 10 | > 10 |
| BD55-6340 (protein) chain 1: QVTLKESGPVLVKPTETLTLTCTVSGFSLSNPRMGVSWIRQSPGRALEWLAHIFSTVETSYNPSLKSRLTVSKDTSKSHVVLTMTTVDPVDTATYYCAREPGGPWGSSAFDIWGQGTVVTVSS chain 2: QSALTQPASVSGSPGQSITISCTGTSSDVGNYNLVSWYQQHPGKAPKLIIYEVSERPSGVSDRFSGSKSGNTASLTISGLQAEDEADYHCCSYAGDSTVIFGGGTKLTVL | > 10 | > 10 | > 10 | > 10 | > 10 | > 10 | 0.222 |
| BD55-6318 (protein) chain 1: QVQLVESGGGVVQPGRPLRLSCVASGFTFSSHDMHWVRQAPGKGLEWVALISKDGGGKFYADSVKGRTTISRDNSKNTLYLQMNGLRGEDTAVYYCARDILSSTSPGTVFDKWGQGTLVTVSS chain 2: EILMTQSPVTLSVSPGERATLSCRASQSVGSSLAWYQQKPGQAPRLLIYGASTRATDIPARFSGSGSGTDFTLTISSLQSEDFAVYYCQQYYTWPPDTFGQGTKLEIK | > 10 | > 10 | > 10 | > 10 | > 10 | > 10 | 2.52 |
| BD55-6320 (protein) chain 1: QVQLEESGPGLVKPSQILSLTCSVSGNSISSVSYCWNWIRQPAGKGLEWIGHMCGSGNTDSNPSLKSRVSISVDTSKNQFSLKMSSVTAADTAVFYCARSTGDYEFDYWGQGTLVTVSS chain 2: DIQMTQSPPTLSASVGDRVTITCRASQSIGRWLAWYQQKPGRAPKLLIYKASILETGVPSRFGGSGSGTEFTLSFNSLQPDDFATYYCQQYNDYPPTFGGGTKVEIK | > 10 | > 10 | > 10 | > 10 | > 10 | > 10 | 0.7 |
